US9663478B2, “Benzotriazine oxides as drugs targeting Mycobacterium tuberculosis” (priority 2011, dated 2017)

tested on: Vero cells; assay: Cytotoxicity against Vero cells (Cell Titer-Glo); conditions: Tables 1-4 and text

Structure (SMILES) | SI (CC50/MIC)
[O-][n+]1nc(N2CCCC2)[n+]([O-])c2cc3c(cc21)CCC3 [Compound 20q, 3-(pyrrolidin-1-yl)-7,8-dihydro-6H-indeno[5,6-e][1,2,4]triazine 1,4-dioxide] | 80
CS(=O)(=O)N1CCN(c2n[n+]([O-])c3cc4c(cc3[n+]2[O-])CCC4)CC1 [Compound 20x, 3-(4-(methylsulfonyl)piperazin-1-yl)-7,8-dihydro-6H-indeno[5,6-e][1,2,4]triazine 1,4-dioxide] | >10
NNC(=O)c1ccncc1 [INH, Isoniazid, reference compound] | >830
O=C1CN(/N=C/c2ccc([N+](=O)[O-])o2)C(=O)N1 [Nitrofurantoin, reference compound] | 1.1
CO[C@H]1/C=C/O[C@@]2(C)Oc3c(C)c(O)c4c(O)c(c(/C=N/N5CCN(C)CC5)c(O)c4c3C2=O)NC(=O)/C(C)=C\C=C\[C@H](C)[C@H](O)[C@@H](C)[C@@H](O)[C@@H](C)[C@H](OC(C)=O)[C@@H]1C [RIF, Rifampin, reference compound] | >15000
Nc1n[n+]([O-])c2ccccc2[n+]1[O-] [TPZ, tirapazamine, reference compound] | 1.6

same assay, conditions: ratio of the CC50/TB-MIC; Tables P1-P3

Structure (SMILES) | SI
[O-][n+]1nc(NC2CC2)[n+]([O-])c2ccccc21 [SRI-012255] | 8.3
[O-][n+]1nc(NC2CCCCCC2)[n+]([O-])c2ccccc21 [SRI-012256] | 3.2
CC(C)(C)C1CCC(Nc2n[n+]([O-])c3ccccc3[n+]2[O-])CC1 (stereo not shown) [SRI-012257] | 3.7
CCCC(C)Nc1n[n+]([O-])c2ccccc2[n+]1[O-] (stereo not shown) [SRI-012258] | 5.3
CC(C)CCC(C)Nc1n[n+]([O-])c2ccccc2[n+]1[O-] (stereo not shown) [SRI-012259] | 3.3
[O-][n+]1nc(NC2CCC2)[n+]([O-])c2ccccc21 [SRI-012260] | 7.1
CCC(C)Nc1n[n+]([O-])c2ccccc2[n+]1[O-] (stereo not shown) [SRI-012262] | 8.6
CC(C)CC(C)Nc1n[n+]([O-])c2ccccc2[n+]1[O-] (stereo not shown) [SRI-012263] | 4.7
[O-][n+]1nc(NC2CCCC2)[n+]([O-])c2ccccc21 [SRI-012265] | 4.2
[O-][n+]1nc(NC2CCCCC2)[n+]([O-])c2ccccc21 [SRI-012266] | 3.6
CC(C)C(C)Nc1n[n+]([O-])c2ccccc2[n+]1[O-] (stereo not shown) [SRI-012267] | 4.2
CC(Nc1n[n+]([O-])c2ccccc2[n+]1[O-])C(C)(C)C (stereo not shown) [SRI-012268] | 4.0
[O-][n+]1nc(NC2[C@H]3C[C@@H]4C[C@@H](C[C@H]2C4)C3)[n+]([O-])c2ccccc21 (stereo partly shown) [SRI-012269] | 2.9
CC1CC(Nc2n[n+]([O-])c3ccccc3[n+]2[O-])CC(C)(C)C1 (stereo not shown) [SRI-012270] | 4.2
CCC(CC)Nc1n[n+]([O-])c2ccccc2[n+]1[O-] [SRI-012271] | 7.3
CCC(COC)Nc1n[n+]([O-])c2ccccc2[n+]1[O-] (stereo not shown) [SRI-012272] | 5.0
[O-][n+]1nc(NC2CC2)[n+]([O-])c2ccc(F)cc21 [SRI-012274] | 11.4
[O-][n+]1nc(NC2CCCCC2)[n+]([O-])c2ccc(F)cc21 [SRI-012275] | <4
[O-][n+]1nc(NC2CCC2)[n+]([O-])c2ccc(F)cc21 [SRI-012276] | 8.0
[O-][n+]1nc(NC2CCCC2)[n+]([O-])c2ccc(F)cc21 [SRI-012277] | 7.3

Structure (SMILES) | SI
CCC(COC)Nc1n[n+]([O-])c2cc(F)ccc2[n+]1[O-] (stereo not shown) [SRI-012278] | 1.3
CCC(CC)Nc1n[n+]([O-])c2cc(F)ccc2[n+]1[O-] [SRI-012279] | 3.5
CC(C)CC(C)Nc1n[n+]([O-])c2cc(F)ccc2[n+]1[O-] (stereo not shown) [SRI-012281] | <4
[O-][n+]1nc(NC2CCCCCC2)[n+]([O-])c2ccc(F)cc21 [SRI-012282] | <4
CC(Nc1n[n+]([O-])c2cc(F)ccc2[n+]1[O-])C(C)(C)C (stereo not shown) [SRI-012283] | <4
CCNc1n[n+]([O-])c2cc(F)ccc2[n+]1[O-] [SRI-012284] | 7.3
CCNc1n[n+]([O-])c2cc(OC)ccc2[n+]1[O-] [SRI-012285] | 6.3
CCNc1n[n+]([O-])c2cc3c(cc2[n+]1[O-])CCC3 [SRI-012286] | 28.8
[O-][n+]1nc(NC2CC2)[n+]([O-])c2ccc(Cl)cc21 [SRI-012301] | 2.2
[O-][n+]1nc(NC2CCC2)[n+]([O-])c2ccc(Cl)cc21 [SRI-012302] | 10.3
[O-][n+]1nc(NC2CCCCC2)[n+]([O-])c2ccc(Cl)cc21 [SRI-012303] | 4.2
CCC(COC)Nc1n[n+]([O-])c2cc(Cl)ccc2[n+]1[O-] (stereo not shown) [SRI-012304] | 2.1
CCNc1n[n+]([O-])c2cc(Cl)ccc2[n+]1[O-] [SRI-012306] | 2.1
Cc1cc2c(cc1C)[n+]([O-])c(NC1CCC1)n[n+]2[O-] [SRI-012459] | 34.9
Cc1cccc2c1[n+]([O-])c(NC1CCC1)n[n+]2[O-] [SRI-012460] | 69.9
COc1ccc2c(c1)[n+]([O-])nc(NC1CCC1)[n+]2[O-] [SRI-012463] | 15.8
[O-][n+]1nc(N[C@@H]2C[C@H]3CC[C@@H]2C3)[n+]([O-])c2ccc(Br)cc21 [SRI-012467] | 2.6
COc1cc2c(cc1C)[n+]([O-])nc(NC1CCC1)[n+]2[O-] [SRI-012469] | 20.0
COc1cc2c(cc1C)[n+]([O-])nc(N[C@@H]1C[C@H]3CC[C@@H]1C3)[n+]2[O-] [SRI-012470] | 10.0
Cc1cccc2c1[n+]([O-])c(NC1CCCC1)n[n+]2[O-] [SRI-012473] | 11.9
